Results of unrelated studies side by side (data: NIAID ChemDB).

Common to all: tests in culture; species: Candida albicans; endpoint: inhibition

For "inactive" no cut-off is given.

smiles | strain or isolate | read by | conditions | dose | value
CCCCCCn1c(-c2ccc([N+](=O)[O-])cc2)cc(C(=O)N2CCN(C)CC2)c1C | 20 strains | - | - | 200 µg/mL | 0%
Cc1ccc(-c2cn(-c3ccc(F)cc3)c(C)c2C(=O)O)cc1 | 40 strains | - | - | 73.33 µg/mL | 80%
Nc1nc(/N=C/c2ccccn2)n[nH]1.Nc1nc(/N=C/c2ccccn2)n[nH]1.[O]=[V+2] | - | agar diffusion / agar | - | 200 µg/mL | 66%
C[C@H]1[C@H](O)[C@@H](C)/C=C/C=C/C=C/C=C/C=C/C=C/C=C/[C@H](O[C@@H]2O[C@H](C)[C@@H](O)[C@H](N)[C@@H]2O)C[C@@H]2O[C@](O)(C[C@@H](O)C[C@@H](O)CC[C@H](O)[C@@H](O)C[C@@H](O)CC(=O)O[C@H]1C)C[C@H](O)[C@H]2C(=O)O | sap9/10 | broth dilution | - | 1 µg/mL | 100%
Cc1c(C(=O)N(CCO)CCO)cc(-c2ccc([N+](=O)[O-])cc2)n1-c1ccc(Cl)cc1 | 20 strains | - | - | 200 µg/mL | 0%
Nc1[nH]c(=O)ncc1F | 5208 strains | - | - | 0.25 µg/mL | 69%
C[C@@H](c1ncncc1F)[C@](O)(Cn1cncn1)c1ccc(F)cc1F | - | - | - | 5 µg/mL | 100%
Cc1c(C(=O)O)c(-c2ccc(Cl)cc2)cn1-c1ccc(Br)cc1 | 40 strains | - | - | 24.85 µg/mL | 2.5%
O=C1C(Sc2ccccc2)=C(Sc2ccccc2)C(=O)c2ccccc21 | - | - | - | 0.2 µg/mL | 42.6%
CC(=O)OCC1C=C(c2ccc(Br)cc2)C(=O)O1 | ATCC 90028 | - | - | 10 µg/mL | 100%
CCC(c1ccc(OC)cc1)C(c1ccc(OC)cc1)n1cnnc1 | 28 strains | - | - | 256 µg/mL | 65%
CC(C)(O)c1cn(-c2ccc([N+](=O)[O-])cc2)nn1 | URM 4817 | broth dilution | - | 2048 µg/mL | 0%
CC(=O)N1CCN(c2ccc(OC[C@H]3CO[C@](Cn4ccnc4)(c4ccc(-c5ccccc5)cc4)O3)cc2)CC1 | 44 strains | - | - | 256 µg/mL | 46%
c1ccc(-c2ccc(C(c3cccc4ccccc34)n3ccnc3)cc2)cc1 | 23 strains | - | - | 256 µg/mL | 15%
CS(=O)(=O)OC[C@H]1CO[C@](Cn2ccnc2)(c2ccc(-c3ccccc3)cc2)O1 | 44 strains | - | - | 256 µg/mL | 71.8%
CC(C)(C)OC(=O)N1CCC(n2cc(C#N)nn2)CC1 | NCIM3471 | agar | - | 200 µg/mL | 0%
CC(C)(O)c1cn(-c2ccc3ccccc3c2)nn1 | URM 4388 | broth dilution | - | 2048 µg/mL | 0%
CCC(C)n1ncn(-c2ccc(N3CCN(c4ccc(OC[C@H]5CO[C@](Cn6cncn6)(c6ccc(Cl)cc6Cl)O5)cc4)CC3)cc2)c1=O | - | - | - | 5 µg/mL | 90%
COc1ccccc1/C=N/c1n[nH]c(N)n1.COc1ccccc1/C=N/c1n[nH]c(N)n1.[O]=[V+2] | - | agar diffusion / agar | - | 200 µg/mL | 46%
O=C(O)CCc1ccccc1 | MY1055 | - | - | 500 µg/mL | 15.3%
Cc1c(C(=O)O)c(-c2ccc(Br)cc2)cn1-c1ccc(F)cc1 | 40 strains | - | - | 78.57 µg/mL | 2.5%
NCCCC[C@H](NC(=O)[C@H](Cc1c[nH]c2ccccc12)NC(=O)[C@H](CCCCN)NC(=O)[C@@H](N)CCCCN)C(=O)O | ATCC 10231 | - | - | 25 µM | 0%
COc1ccc(C(O)Cn2ccnc2)cc1 | Fluconazole-resistant | broth dilution | - | 80 µg/mL | 39%
O=C1C(Nc2ccc([N+](=O)[O-])cc2)=C(S(=O)c2ccccc2)C(=O)c2ccccc21 | - | - | - | 0.2 µg/mL | 39.2%
CC[C@H](C)[C@H](NC(=O)[C@H](Cc1c[nH]c2ccccc12)NC(=O)[C@H](Cc1ccc(O)cc1)NC(=O)[C@@H](N)CO)C(=O)N[C@@H](CCC(=O)O)C(=O)O | NBRC 1392 | colony count | - | 5 µM | 17.5%
Nc1nc(/N=C/c2ccccn2)n[nH]1 | - | agar diffusion / agar | - | 200 µg/mL | 52%
O=S(=O)(O)O/N=C(\Cc1cn(S(=O)(=O)O)c2ccccc12)SC1OC(CO)C(O)C(O)C1O | ATCC 10231 | - | - | 400 µg/mL | 70.5%
CCC(c1ccc(Cl)cc1)C(c1ccc(OC)cc1)n1cncn1 | 28 strains | - | - | 256 µg/mL | 86%
CS(=O)(=O)c1ccc(NC(=O)Oc2c(Cl)cc(Cl)cc2Cl)cc1 | - | - | - | 50 µg/mL | inactive
CCCCCCCCn1c(-c2ccc([N+](=O)[O-])cc2)cc(C(=O)N2CCN(C)CC2)c1C | 20 strains | - | - | 200 µg/mL | 0%
COc1ccc(SC2=C(Sc3ccc(OC)cc3)C(=O)c3ccccc3C2=O)cc1 | - | - | - | 0.2 µg/mL | 43.5%
COc1ccc(C(=O)Cn2cncn2)cc1 | Fluconazole-resistant | broth dilution | - | 80 µg/mL | 35%
CC(C)(O)c1cn(-c2cccc3ccccc23)nn1 | URM 4384 | broth dilution | - | 2048 µg/mL | 0%
COc1ccc(C(Cc2ccc(Cl)cc2)n2cncn2)cc1 | 28 strains | - | - | 256 µg/mL | 100%
COc1ccccc1/C=N/c1n[nH]c(N)n1 | - | agar diffusion / agar | - | 200 µg/mL | 48%
COc1ccc(C(O)Cc2ccc(Cl)cc2)cc1 | 28 strains | - | - | 256 µg/mL | 100%
CC1=CC(C)=N/C1=C\c1[nH]c(C)cc1C | - | - | - | 10 µg/mL | inactive
CC(=O)OC[C@H]1O[C@@H](O[C@@H]2[C@@H](N=[N+]=[N-])[C@H](O)[C@H](O)[C@H]3OC(C)(C)O[C@H]32)[C@H](OC(C)=O)[C@@H](OC(C)=O)[C@H]1OC(C)=O | ATCC 10231 | broth dilution / turbidity | - | 15.6 µg/mL | 13.24%
Cc1cc(C=Nc2ccc(N=Cc3cc(C)cc(/C=N/Nc4nc5ccccc5s4)c3O)cc2)c(O)c(/C=C/Nc2nc3ccccc3s2)c1 | - | turbidity | - | 10 µg/mL | 1.35%
O=C1C(Nc2ccc(Br)cc2)=C(S(=O)c2ccccc2)C(=O)c2ccccc21 | - | - | - | 0.2 µg/mL | 41.4%
N#C/C(=C1/Nc2ccccc2C1=O)c1c[nH]c2ccccc12 | ATCC 10231 | - | - | 400 µg/mL | 69.2%
Clc1ccc(COC(Cn2ccnc2)c2ccc(Cl)cc2Cl)c(Cl)c1 | 439 isolates | - | 48 h | 4 µg/mL | 56%
Cc1ccc(-c2cn(-c3ccc(C)cc3)c(C)c2C(=O)O)cc1 | 40 strains | - | - | 93.79 µg/mL | 95%
Cc1ccc(-n2cc(C(C)(C)O)nn2)cc1C | URM 4385 | broth dilution | - | 2048 µg/mL | 0%
C=CC(C/C(=N/OS(=O)(=O)O)SC1OC(CO)C(O)C(O)C1O)OC(=O)CC1C(=O)Nc2ccccc21 | ATCC 10231 | - | - | 400 µg/mL | 77.3%
O=C(Cn1ccnc1)c1ccc(F)cc1F | Fluconazole-resistant | broth dilution | - | 100 µg/mL | 81%
Cc1c(C(=O)N(CCO)CCO)cc(-c2ccc([N+](=O)[O-])cc2)n1Cc1ccccc1 | 20 strains | - | - | 200 µg/mL | 0%
CC(=O)N1CCN(c2ccc(OC[C@H]3CO[C@](Cn4ccnc4)(c4ccc(Cl)cc4Cl)O3)cc2)CC1 | - | - | - | 5 µg/mL | 100%
Cc1ccc(Sc2c(S(=O)c3ccccc3)c(O)c3ccccc3c2O)cc1 | - | - | - | 0.2 µg/mL | 44%
Cc1c(C(=O)O)c(-c2ccc(Cl)cc2)cn1-c1ccc(Cl)cc1 | 40 strains | - | - | 24.9 µg/mL | 2.5%
Nc1nc(/N=C/c2ccc[n-]2)n[nH]1.Nc1nc(/N=C/c2ccc[n-]2)n[nH]1.[O]=[V+2] | - | agar diffusion / agar | - | 200 µg/mL | 77%
COc1cccc(C=[NH+]CC(=O)[N-]CC(=O)[O-])c1[O-].O.O.O.[K+] | - | - | - | 200 µg/mL | 88.8%

6 of the rows above, restated:

{"smiles": "COc1ccccc1/C=N/c1n[nH]c(N)n1.COc1ccccc1/C=N/c1n[nH]c(N)n1.[O]=[V+2]", "read by": "agar diffusion / agar", "dose": "200 µg/mL", "value": "46%"}
{"smiles": "CC(=O)OCC1C=C(c2ccc(Br)cc2)C(=O)O1", "strain or isolate": "ATCC 90028", "dose": "10 µg/mL", "value": "100%"}
{"smiles": "Nc1nc(/N=C/c2ccccn2)n[nH]1.Nc1nc(/N=C/c2ccccn2)n[nH]1.[O]=[V+2]", "read by": "agar diffusion / agar", "dose": "200 µg/mL", "value": "66%"}
{"smiles": "CS(=O)(=O)OC[C@H]1CO[C@](Cn2ccnc2)(c2ccc(-c3ccccc3)cc2)O1", "strain or isolate": "44 strains", "dose": "256 µg/mL", "value": "71.8%"}
{"smiles": "Nc1[nH]c(=O)ncc1F", "strain or isolate": "5208 strains", "dose": "0.25 µg/mL", "value": "69%"}
{"smiles": "Cc1c(C(=O)N(CCO)CCO)cc(-c2ccc([N+](=O)[O-])cc2)n1-c1ccc(Cl)cc1", "strain or isolate": "20 strains", "dose": "200 µg/mL", "value": "0%"}

Blank or dashed fields: not listed here. Percent inhibition refers to the dose given; in toxicity tests it is the harm to the cells. Neighbouring rows are from separate reports.